Experimental findings from patent US20200170258A1 are described below.

The target of this experiment is T1, EF-Tu Receptor (EFR) of Arabidopsis thaliana (Arabidopsis thaliana), C0LGT6.
T1 chain: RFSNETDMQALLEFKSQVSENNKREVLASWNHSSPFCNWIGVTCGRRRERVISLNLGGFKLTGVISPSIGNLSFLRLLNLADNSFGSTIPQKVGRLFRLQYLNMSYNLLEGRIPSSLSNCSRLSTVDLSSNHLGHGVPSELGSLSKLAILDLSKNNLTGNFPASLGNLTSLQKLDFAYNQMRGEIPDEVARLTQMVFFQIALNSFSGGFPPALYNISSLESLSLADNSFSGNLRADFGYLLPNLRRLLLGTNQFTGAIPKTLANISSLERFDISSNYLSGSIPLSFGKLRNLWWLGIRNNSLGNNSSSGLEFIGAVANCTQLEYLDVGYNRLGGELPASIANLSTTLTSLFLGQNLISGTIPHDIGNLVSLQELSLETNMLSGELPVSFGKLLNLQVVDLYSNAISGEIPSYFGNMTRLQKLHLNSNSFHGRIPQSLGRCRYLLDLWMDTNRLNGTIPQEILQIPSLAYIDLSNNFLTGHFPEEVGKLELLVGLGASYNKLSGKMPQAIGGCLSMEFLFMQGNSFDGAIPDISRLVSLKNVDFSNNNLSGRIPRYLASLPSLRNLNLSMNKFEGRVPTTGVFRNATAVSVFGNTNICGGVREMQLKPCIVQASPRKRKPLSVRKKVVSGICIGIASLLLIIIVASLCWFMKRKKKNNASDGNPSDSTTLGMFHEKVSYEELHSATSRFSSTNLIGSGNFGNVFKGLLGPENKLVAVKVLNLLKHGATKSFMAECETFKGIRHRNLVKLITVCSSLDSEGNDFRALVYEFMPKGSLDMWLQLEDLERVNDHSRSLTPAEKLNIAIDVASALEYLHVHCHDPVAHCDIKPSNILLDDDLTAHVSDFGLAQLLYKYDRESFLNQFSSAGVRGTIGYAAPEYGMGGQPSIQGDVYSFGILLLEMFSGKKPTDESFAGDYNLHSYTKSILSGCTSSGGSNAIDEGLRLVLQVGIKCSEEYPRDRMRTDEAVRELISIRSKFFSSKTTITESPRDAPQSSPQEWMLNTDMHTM
As to the kind of experiment: cell-based or functional assay.

In the case of AKAKFERSKPHVNIGTIGHVDHGKTT (modifications not checked) [N terminus of EF Tu (modified), Bacillus cereus, 26 amino acids], the ROS activity in Arabidopsis leaf tissue, Average RLU value, 100 nM turned out to be 211000 RLU and the ROS activity in Arabidopsis leaf tissue, fold increase over mock treatment, 100 nM was found to be 2.5 fold.

AKAKFERSKPHVNIGTIG (modifications not checked) [N terminus of EF Tu (modified), Bacillus cereus, 18 amino acids] gave an ROS activity in Arabidopsis leaf tissue, Average RLU value, 100 nM of 264000 RLU and an ROS activity in Arabidopsis leaf tissue, fold increase over mock treatment, 100 nM of 3.2 fold.
